# Library screen at single concentrations

Values are the deposited “Percent Effect”, in %.
The record does not define 0% and 100%; most values in the screen are far below 50% and negative numbers occur (in some assays of this library far below -100).
This is part of a subset picked to be rich in strong results.
Two or more numbers in one place are separate tests of the same structure; such repeats can differ widely.

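Phenotypic screen: M. tuberculosis growth, cholesterol and DPPC medium, 4 days; the read-out is not stated. Concentration: 50 µM. The record gives no direction; compounds that gave an IC50 in retests scored well above the rest, so higher reads as more growth inhibition. About 69,000 compounds were tested under these conditions; 0.54% (about 370) showed 50% or more at least once.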

Compound: c1cncc(-c2ccc3c(c2)C2(CCNCC2)CC3)c1
effect: -45.13%

Compound: CC(C)c1ccc(OCn2ccc(C(=O)N3CCCC3)n2)cc1
effect: 53.14%

Compound: CCN1CCC(CNCc2c[nH]nc2C(C)(C)C)C1.Cl (stereo unspecified)
effect: 53.32%

Compound: Cc1ccc(C(=O)N2CCCc3c(c(=O)n(C)n3C)C2)o1
effect: -27.81% and -10.42%

Compound: CCNC(=O)N1CC(c2nc(Cc3ccccc3)no2)C1
effect: -3.115%

Compound: Cl.Cn1nc(C2CCCN(Cc3ccc(F)cc3)C2)c2nccnc21 (stereo unspecified)
effect: 0.6337%

Compound: CC(C)(C)c1n[nH]cc1CNC1CCC(O)CC1 (stereo unspecified)
effect: 5.476%

Compound: O=C(NCCc1cccc(Cl)c1)C1CCOCC1
effect: 4.114%

Compound: Cc1cc(C[C@@H]2COC[C@H]2NCc2ccc(C(C)C)cc2)on1.O=C(O)CC(O)(CC(=O)O)C(=O)O
effect: 48.35%

Compound: CCC1c2ccsc2CCN1C(=O)NCc1cc(C)on1 (stereo unspecified)
effect: 0.4834%

Compound: COc1ccc(C(=O)O)cc1-c1cccc2c1CCNC2
effect: -0.7425%

Compound: CC(C)(O)CCc1cccc(C(=O)NCc2cnn3cccnc23)c1
effect: -5.769%

Compound: CNC(=O)C1CN(C(=O)c2ccncc2)CCN(S(C)(=O)=O)C1 (stereo unspecified)
effect: -1.349% and -6.816%

Compound: CCn1nc(C)cc1C(=O)NCc1nc(C)cc(C)n1
effect: 7.294%

Compound: CCc1nnc2n1CCN(C(C(=O)NC1CC1)c1ccccc1)C2 (stereo unspecified)
effect: 97.1%

Compound: CCc1c(C)sc(NC(=O)CN2CCN(CC)CC2)c1C(=O)OC
effect: 73.32%

Compound: FC1(F)CCN(Cc2cccnc2)CC12CCN(c1cnccn1)C2.O=C(O)C(F)(F)F.O=C(O)C(F)(F)F.O=C(O)C(F)(F)F (stereo unspecified)
effect: -3.338%

Compound: NC(=O)C1(CNC(=O)CCc2ccc(Cl)s2)CCOCC1
effect: 2.327%

Compound: COc1ccc(C[C@H]2CN(C(=O)c3ccncc3)CC[C@@H]2OC)cc1.O=C(O)C(F)(F)F
effect: -19.01%

Compound: COCCN(Cc1ccoc1)S(=O)(=O)c1ccc(F)c(Cl)c1
effect: 77.9%

Compound: CC(C)Cc1cc(NC(=O)c2ccccc2F)n(C)n1
effect: 27.74%

Compound: O=C(O)C(F)(F)F.[H][C@@]12CN(CC3CC3)C[C@]1([H])[C@@H](OC)CCN2C(=O)Cc1ccsc1
effect: -2.602%

Compound: CC(C)CCN1Cc2c(C(=O)O)ncn2-c2ccccc2S1(=O)=O
effect: 93.66%

Compound: CCN(Cc1cnn(C)c1)C[C@H]1CC[C@@H](Cc2cccc(CN)c2)O1
effect: 51.85%

Compound: CC(C)c1ccc(CN2C(=O)C3(CCNCC3)Nc3ccccc32)cc1
effect: 34.47%

Compound: CC(C)CCOc1ccc(C(C)NC(=O)Cn2cccnc2=O)cc1 (stereo unspecified)
effect: 51.01% and -1.017%

Compound: O=C(c1cc2c([nH]c1=O)CCC2)N1CCCC1c1cccnc1 (stereo unspecified)
effect: -9.177%

Compound: Cn1ncnc1NCc1ccc(F)cc1
effect: -7.168%

Compound: N#Cc1cccc(N2CCCC(CO)(Cc3ccccc3F)C2)n1 (stereo unspecified)
effect: 87.33%

Compound: O=C(CCC1CCCN(C(=O)CCc2ccc(F)c(F)c2)C1)NC1CC1 (stereo unspecified)
effect: 9.46%

Compound: CCOc1ccc(Cl)cc1CNCCCn1ccnc1
effect: -16.58%

Compound: Cc1ccn(-c2ccc(NCc3ccccc3F)nn2)n1
effect: 2.767% and 69.47%

Compound: Br.O=C(CN(C1=NCCCC1)c1ccccc1)c1ccc2c(c1)OCCO2
effect: 9.641%

Compound: CC(C)Oc1ccc(CNC(=O)c2cc(C(N)=O)cs2)cc1F
effect: -5.584%

Compound: Cc1cc(CNc2cncc(C(=O)N(C)C)n2)c2[nH]c(C)c(C)c2c1
effect: 3.377%

Compound: CO[C@H]1CCN(Cc2nccs2)C[C@@H]1Cc1ccccc1
effect: 10.5%

Compound: CNC(=O)CS(=O)(=O)Cc1cc(Cl)c2c(c1)OCCO2
effect: -5.351%

Compound: COc1ncccc1CNC(=O)c1cnccn1
effect: 6.576%

Compound: CCOCCN1CCn2c(C)nnc2C1
effect: 106.4%

Compound: CCn1nnc2c1C(COCC(=O)N(C)C)CN(Cc1ccoc1)C2 (stereo unspecified)
effect: 70.97%

Compound: O=C1N(Cc2ccc(F)c(F)c2)CCCC12CCN(C1CCCC1)C2 (stereo unspecified)
effect: 32.95%

Compound: O=C(Cn1cccn1)NCC1(c2ccccc2)CC1
effect: -19.73%

Compound: Cc1ccc(C)c(S(=O)(=O)NCCNc2ccc(-n3cccc3)nn2)c1
effect: 39.54%

Compound: Cc1[nH]c2ccc(CNc3cc(C(N)=O)ccn3)cc2c1C
effect: 20.03%

Compound: COC(=O)c1ncccc1N1CCC(C(O)c2ccccc2)CC1 (stereo unspecified)
effect: -24.55%

Compound: CC(C)COC(C)C(=O)NCc1ccccc1 (stereo unspecified)
effect: 21.82%

Compound: CN1CCC(Cc2cc(Nc3ccccn3)ncn2)CC1
effect: -13.94%

Once more, the final 6:

Compound,effect
O=C(Cn1cccn1)NCC1(c2ccccc2)CC1,-19.73%
Cc1ccc(C)c(S(=O)(=O)NCCNc2ccc(-n3cccc3)nn2)c1,39.54%
Cc1[nH]c2ccc(CNc3cc(C(N)=O)ccn3)cc2c1C,20.03%
COC(=O)c1ncccc1N1CCC(C(O)c2ccccc2)CC1 (stereo unspecified),-24.55%
CC(C)COC(C)C(=O)NCc1ccccc1 (stereo unspecified),21.82%
CN1CCC(Cc2cc(Nc3ccccn3)ncn2)CC1,-13.94%

From ChEMBL document CHEMBL3988442, “University of Dundee, Small-Polar-MMV Screening Library” (2021).